Anti-infective test results gathered from many reports (values: NIAID ChemDB through PubChem).

Shared fields: tests in culture; organism: Staphylococcus aureus; measure: MIC

Conditions beyond the fields shown may differ between rows.

smiles | strain or isolate | result
CC[C@H]1OC(=O)[C@H](C)C(=O)[C@H](C)[C@@H](O[C@@H]2O[C@H](C)C[C@H](N(C)C)[C@H]2O)[C@@]2(C)C[C@@H](C)C(=NC(C)=O)[C@H](C)[C@@H](OC/C(=N\Oc3ccc(-c4cnccn4)s3)CO2)[C@]1(C)O | 27660 (erythromycin-resistant) | 0.125 µg/mL
O=C1O[C@@H](COc2ccon2)CN1c1ccc(-n2cnc(CO)c2)c(F)c1 | 122 (novobiocin-resistant) | 4 µg/mL
CC(=O)NC[C@H]1CN(c2ccc(NC(=O)c3cnccn3)c(F)c2)C(=O)O1 | ATCC 29213 (linezolid-resistant) | >64 µg/mL
O=C1O[C@@H](COc2ccncc2)CN1c1ccc(C2=CCOCC2)c(F)c1 | 004 (methicillin quinolone-resistant) | 8 µg/mL
CC(=O)NC[C@H]1CN(c2ccc(NC(=O)c3ccc([N+](=O)[O-])o3)c(F)c2)C(=O)O1 | ATCC 29213 (linezolid-resistant) | 8 µg/mL
CC[C@H]1OC(=O)[C@H](C)C(=O)[C@H](C)[C@@H](O[C@@H]2O[C@H](C)C[C@H](N(C)C)[C@H]2O)[C@@]2(C)C[C@@H](C)C(=NC(C)=O)[C@H](C)[C@@H](OC/C(=N\OCc3cccc(N)n3)CO2)[C@]1(C)O | 25923 (erythromycin-susceptible) | 0.25 µg/mL
Cc1c(NCCO)c(F)cc2c(=O)c(C(=O)O)cn(-c3cc(N)c(F)cc3F)c12 | W200 (methicillin-resistant) | 0.03 µg/mL
O=C(NNc1ccccn1)Nc1cc(C(F)(F)F)cc(C(F)(F)F)c1 | MI273 | >300 µM
Cc1c(NCCCO)c(F)cc2c(=O)c(C(=O)O)cn(-c3cc(N)c(F)cc3F)c12 | W200 (methicillin-resistant) | 0.03 µg/mL
CO/N=C/c1ccc(C(=O)Nc2ccc(N3C[C@H](CNC(C)=O)OC3=O)cc2F)o1 | ATCC 29213 (linezolid-resistant) | >64 µg/mL
CC[C@H]1OC(=O)[C@H](C)C(=O)[C@H](C)[C@@H](O[C@@H]2O[C@H](C)C[C@H](N(C)C)[C@H]2O)[C@@]2(C)C[C@@H](C)C(=NC(C)=O)[C@H](C)[C@@H](OC/C(=N\OCc3ccc(C(N)=O)cc3)CO2)[C@]1(C)O | 25923 (erythromycin-susceptible) | 0.13 µg/mL
O=C1O[C@@H](COc2ccncn2)CN1c1ccc(C2=CCOCC2)c(F)c1 | 004 (methicillin quinolone-resistant) | 1 µg/mL
CCCCCCCCCCCC[N+](C)(C)COCCCCCCCCCCC | ATCC 6538 | 11.5 µM
O=C1O[C@@H](COc2cnccn2)CN1c1ccc(C2=CCOCC2)c(F)c1 | 004 (methicillin quinolone-resistant) | 0.5 µg/mL
CCCCCCCCCCSC[N+](C)(C)CCCCCCCC | ATCC 6538 | 26.3 µM
CC[C@H]1OC(=O)[C@H](C)C(=O)[C@H](C)[C@@H](O[C@@H]2O[C@H](C)C[C@H](N(C)C)[C@H]2O)[C@@]2(C)C[C@@H](C)C(=NC(C)=O)[C@H](C)[C@@H](OC/C(=N\Oc3ccccc3)CO2)[C@]1(C)O | 33591 (erythromycin methicillin-resistant) | >64 µg/mL
CC(=O)NC[C@H]1CN(c2ccc(-n3cnc(C=CC#N)c3)c(F)c2)C(=O)O1 | Novobiocin-resistant | 0.25 µg/mL
COCC(=O)Nc1ccc(N2C[C@H](CNC(C)=O)OC2=O)cc1F | ATCC 29213 (linezolid-resistant) | >64 µg/mL
CCCCCCCCCCCC[N+](C)(C)CSCCCC | ATCC 6538 | 2.84 µM
N#Cc1ccc(N2CCN(c3ccc(N4C[C@H](COc5cnccn5)OC4=O)cc3F)CC2)nn1 | 078 (oxford) | 1 µg/mL
O=C(CC(=O)Nc1cc(C(F)(F)F)cc(C(F)(F)F)c1)Nc1cccc(C2=NCCN2)c1 | MI273 | 75 µM
Nc1ccc(OC[C@H]2CN(c3ccc(C4=CCOCC4)c(F)c3)C(=O)O2)cn1 | 004 (methicillin quinolone-resistant) | 1 µg/mL
CC(=O)NC[C@H]1CN(c2ccc(NC(=O)c3ccc(/C=C/[N+](=O)[O-])o3)c(F)c2)C(=O)O1 | ATCC 29213 (linezolid-resistant) | >64 µg/mL
C=C1COC2[C@@H](C)C(=NC(C)=O)[C@H](C)C[C@@](C)(OC1)[C@H](O[C@@H]1O[C@H](C)C[C@H](N(C)C)[C@H]1O)[C@@H](C)C(=O)[C@@H](C)C(=O)O[C@H](CC)[C@@]2(C)O | 33591 (erythromycin methicillin-resistant) | >64 µg/mL
CC[C@H]1OC(=O)[C@H](C)C(=O)[C@H](C)[C@@H](O[C@@H]2O[C@H](C)C[C@H](N(C)C)[C@H]2O)[C@@]2(C)C[C@@H](C)C(=NC(C)=O)[C@H](C)[C@@H](OC/C(=N\OCCc3ccccc3)CO2)[C@]1(C)O | 25923 (erythromycin-susceptible) | 0.5 µg/mL
Cc1c(NC2CC2)c(F)cc2c(=O)c(C(=O)O)cn(-c3cc(N)c(F)cc3F)c12 | W44 (methicillin-resistant) | 0.06 µg/mL
O=C(C(O)Sc1ccccn1)N1CC=C(c2c(F)cc(N3C[C@H](COc4ccon4)OC3=O)cc2F)CC1 | 004 (methicillin quinolone-resistant) | 1 µg/mL
CC[C@H]1OC(=O)[C@H](C)C(=O)[C@H](C)[C@@H](O[C@@H]2O[C@H](C)C[C@H](N(C)C)[C@H]2O)[C@@]2(C)C[C@@H](C)C(=NC(C)=O)[C@H](C)[C@@H](OC/C(=N\OCC#Cc3ncccn3)CO2)[C@]1(C)O | 25923 (erythromycin-susceptible) | 0.25 µg/mL
O=C1O[C@@H](COc2cccnc2)CN1c1ccc(C2=CCOCC2)c(F)c1 | 004 (methicillin quinolone-resistant) | 2 µg/mL
CS(=O)(=O)N[C@H]1CCN(c2ccc(N3C[C@H](COc4ccon4)OC3=O)cc2F)C1 | 004 (methicillin quinolone-resistant) | 2 µg/mL
O=C(Nc1cc(C(F)(F)F)cc(C(F)(F)F)c1)NN1CCOCC1 | MI273 | 100 µM
CCCCCCCCCCCC[N+](C)(C)COCCC(C)C | ATCC 6538 | 3.57 µM
CC[C@H]1OC(=O)[C@@](C)(F)C(=O)[C@H](C)[C@@H](O[C@@H]2O[C@H](C)C[C@H](N(C)C)[C@H]2O)[C@@]2(C)C[C@@H](C)C(=NC(C)=O)[C@H](C)[C@@H](OC/C(=N\OCc3ccc(-c4cccc(N)n4)s3)CO2)[C@]1(C)O | 33591 (erythromycin-resistant) | 4 µg/mL
O=C(Nc1cccc(C2=NCCN2)c1)Nc1cccc(C(F)(F)F)c1 | MI273 | 38 µM
CCCCCCCCCCCCOC[N+](C)(C)CCCCCCCC | ATCC33592 | 12.8 µM
O=C(CO)N1CC=C(c2c(F)cc(N3C[C@H](COc4ccon4)OC3=O)cc2F)CC1 | 004 (methicillin quinolone-resistant) | 0.5 µg/mL
O=C(NCCO)NNC(=O)Nc1cc(C(F)(F)F)cc(C(F)(F)F)c1 | MI273 | >300 µM
CC[C@H]1OC(=O)[C@H](C)C(=O)[C@H](C)[C@@H](O[C@@H]2O[C@H](C)C[C@H](N(C)C)[C@H]2O)[C@@]2(C)C[C@@H](C)C(=NC(C)=O)[C@H](C)[C@@H](OC/C(=N\Oc3ccc(-n4cccn4)nc3)CO2)[C@]1(C)O | 25923 (erythromycin-susceptible) | 0.13 µg/mL
CCCCCCCC[N+](C)(C)COC1CCCCCCCCCCC1 | ATCC 6538 | 2.56 µM
CC[C@H]1OC(=O)[C@H](C)C(=O)[C@H](C)[C@@H](O[C@@H]2O[C@H](C)C[C@H](N(C)C)[C@H]2O)[C@@]2(C)C[C@@H](C)C(=NC(C)=O)[C@H](C)[C@@H](OC/C(=N\OCC#Cc3ccc(N)nc3)CO2)[C@]1(C)O | 25923 (erythromycin-susceptible) | 0.13 µg/mL
CCCCCCCC[N+](C)(C)COC(C)CCC | ATCC 6538 | 0.03 µM
O=C(Nc1cccc(C2=NCCN2)c1)Nc1cccc(C2=NCCN2)c1 | MI273 | 111 µM
N#Cc1ccc(N2CCN(c3ccc(N4C[C@H](COc5ccncn5)OC4=O)cc3F)CC2)nc1 | 078 (oxford) | 16 µg/mL
CCCCCCCCCCCC[N+](C)(C)COCCC(C)CCCC(C)C | ATCC33592 | 11.9 µM

3 of the rows above, restated:

smiles,strain or isolate,result
O=C(C(O)Sc1ccccn1)N1CC=C(c2c(F)cc(N3C[C@H](COc4ccon4)OC3=O)cc2F)CC1,004 (methicillin quinolone-resistant),1 µg/mL
CC[C@H]1OC(=O)[C@H](C)C(=O)[C@H](C)[C@@H](O[C@@H]2O[C@H](C)C[C@H](N(C)C)[C@H]2O)[C@@]2(C)C[C@@H](C)C(=NC(C)=O)[C@H](C)[C@@H](OC/C(=N\OCC#Cc3ccc(N)nc3)CO2)[C@]1(C)O,25923 (erythromycin-susceptible),0.13 µg/mL
CCCCCCCCCCCC[N+](C)(C)COCCC(C)C,ATCC 6538,3.57 µM